PubChem BioAssay AID624099 – ICCB-Longwood, 2012
Screen: 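Human genes that papillomavirus E2 requires to repress the HPV18 LCR promoter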 (primary screen). Cells: human C33A cervical carcinoma cells (HPV-negative) stably expressing BPV1 E2 and an HPV18 LCR luciferase reporter. Reagents: siRNA pool against human genes, 40 nM. Time to read-out: 72 h. Detection: 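HPV18 LCR reporter light per well, converted to plate-wise z-scores that exclude control wells, and averaged over triplicate plates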. Scale: mean z-score and z-score: higher = stronger reporter signal, weaker E2 silencing. Hit rule: 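Mean z ≥ 2 together with z ≥ 2 in two or more of the three replicates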.
Here is an unselected part of about 21,000 reagents tested. Of all reagents, 497 (2.4%) are marked active. 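Higher z means weaker E2 silencing; only reporter increases were scored, and knock-downs that hurt cell survival may mask genuine repressor factors.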

ALOX5AP (GeneID 241): mean z-score = -0.72; z-score, replicate A = -0.56; z-score, replicate B = -1.09; z-score, replicate C = -0.51; activity call = inactive
ZNF554 (GeneID 115196): mean z-score = -0.27; z-score, replicate A = -0.09; z-score, replicate B = -0.21; z-score, replicate C = -0.51; activity call = inactive
SMPX (GeneID 23676): mean z-score = -0.17; z-score, replicate A = -0.45; z-score, replicate B = -0.08; z-score, replicate C = 0.01; activity call = inactive
WFDC11 (GeneID 259239): mean z-score = -0.19; z-score, replicate A = 0.22; z-score, replicate B = -0.44; z-score, replicate C = -0.34; activity call = inactive
REXO5 (GeneID 81691): mean z-score = 0.96; z-score, replicate A = 1.26; z-score, replicate B = 0.42; z-score, replicate C = 1.19; activity call = inactive
RPA3 (GeneID 6119): mean z-score = 0.81; z-score, replicate A = 0.71; z-score, replicate B = 0.82; z-score, replicate C = 0.89; activity call = inactive
SPARC (GeneID 6678): mean z-score = -1.84; z-score, replicate A = -2.11; z-score, replicate B = -2.08; z-score, replicate C = -1.32; activity call = inactive
TMC3 (GeneID 342125): mean z-score = 0.71; z-score, replicate A = 0.66; z-score, replicate B = 0.54; z-score, replicate C = 0.94; activity call = inactive

A run of entries taken from the entries so far, for reference:
WFDC11 (GeneID 259239): mean z-score = -0.19; z-score, replicate A = 0.22; z-score, replicate B = -0.44; z-score, replicate C = -0.34; activity call = inactive
REXO5 (GeneID 81691): mean z-score = 0.96; z-score, replicate A = 1.26; z-score, replicate B = 0.42; z-score, replicate C = 1.19; activity call = inactive

The results go on:
BRD1 (GeneID 23774): mean z-score = -0.91; z-score, replicate A = -0.72; z-score, replicate B = -1.01; z-score, replicate C = -1; activity call = inactive
NKRF (GeneID 55922): mean z-score = -0.8; z-score, replicate A = -0.7; z-score, replicate B = -0.91; z-score, replicate C = -0.79; activity call = inactive
ARFGEF3 (GeneID 57221): mean z-score = 0.44; z-score, replicate A = 0.61; z-score, replicate B = -0.09; z-score, replicate C = 0.79; activity call = inactive
BPIFB9P (GeneID 402016): mean z-score = -0.6; z-score, replicate A = -0.89; z-score, replicate B = -0.45; z-score, replicate C = -0.45; activity call = inactive
